# Reference: PubChem BioAssay AID1224833 (University of Georgia, 2016)
# Screen: 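Human genes whose knock-down alters rotavirus replication in monkey cells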 (primary screen)
# System: monkey MA104 kidney cells
# Reagent: siRNA pool against human genes, 50 nM
# Duration: 48 h knock-down before infection; read 24 h after infection
# Treatment: infection with rotavirus strain RV3 two days after transfection; infectious dose for this stage not given
# Measurement: 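z-score of rotavirus antigen signal per well, from a fluorescent immunoassay, relative to non-targeting control wells on the same plate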
# Reading the numbers: z-score vs non-targeting control: higher = more rotavirus replication than with non-targeting control
# Active means: In these data the active calls have z-score vs non-targeting control at about -1 or lower, or at about 1 or higher
# Calls: active = z-score beyond 1 either way; inactive = z-score within 1 of zero
# The deposit covers about 12,000 reagents; this is an unselected part. Of all reagents, about 5,600 (46%) were called active. 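Active calls cover z-scores past 1 in both directions, so they include lowered as well as raised rotavirus replication.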
z-score vs non-targeting control,outcome,gene
1.36,active,MFAP2
-1.67,active,LILRB3
-1.97,active,DPRX
0.539,inactive,CENPO
-1.48,active,GLRX
1.22,active,ALOX12B
0.915,inactive,ZFR
0.922,inactive,SMTNL2
-0.732,inactive,ENAM
-0.13,inactive,MXRA7
0.685,inactive,TMIGD1
-1.16,active,BPIFB3
-2.06,active,RAMP1
0.536,inactive,FICD
-0.888,inactive,CDH26
1.64,active,ZNF92
-1.13,active,ZBTB24
0.0453,inactive,EVI2A

Continued, starting with the last 3 of the part before.
z-score vs non-targeting control,outcome,gene
1.64,active,ZNF92
-1.13,active,ZBTB24
0.0453,inactive,EVI2A
-2.35,active,NUDT22
1.52,active,SLC9A5
0.223,inactive,PGBD1
-0.404,inactive,FAM167A
-0.907,inactive,CHRDL2
0.819,inactive,ZMYM5
2.37,active,ZCCHC7
-2.51,active,ACYP1
-1.47,active,FFAR1
-2.03,active,BUD23
0.416,inactive,OR7A5
0.635,inactive,SLC6A19
-0.505,inactive,WNT10A
0.483,inactive,KDM4A
-1.28,active,RASGEF1B
-0.897,inactive,FAM9B
-1.85,active,NID2
0.711,inactive,ANGPTL7
-0.92,inactive,FTO
-2.6,active,C2orf78
-0.793,inactive,SRM
1.12,active,ZNF85
0.891,inactive,MT1X
0.0615,inactive,STH
-0.0377,inactive,VAMP1
-1.31,active,USP17L2
-3.02,active,PTGDS
